Measured values: publication PMC3465485 (Antiviral research, 2012)

Columns and labels:
[1] = tested on: A/Hong Kong/2369/2009 (H1N1) H275Y (A/HK-H275Y) virus
[2] = tested on: Influenza A/Mississippi/03/2001 (H1N1) H275Y (A/MS-H275Y) virus

## CCC(CC)O[C@@H]1C=C(C(=O)O)C[C@H](N)[C@H]1NC(C)=O [Oseltamivir Carboxylate, Oseltamivir carboxylate]
[1]
  SI (CC50/EC50): 0
[2]
  SI (CC50/EC50): 0
